Source: ChEMBL document CHEMBL3988442, “University of Dundee, Small-Polar-MMV Screening Library” (2021).

Mtb glucose medium: 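Growth of Mycobacterium tuberculosis over 3 days (7H9 medium with glucose and tyloxapol); the read-out is not stated. Concentration: 500 µM. Direction is inferred from retests: higher values go with more growth inhibition. About 18,000 compounds were tested under these conditions; 7.9% (about 1,400) showed 50% or more at least once.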
Mtb cholesterol medium: 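Whole-cell growth test on Mycobacterium tuberculosis, read after 4 days in a medium based on cholesterol and the lipid DPPC; the read-out is not stated. Compounds at 500 µM. Direction is inferred from retests: higher values go with more growth inhibition. Of about 18,000 compounds tested this way, about 900 (5%) reached 50% or more in at least one test.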

Values are the deposited “Percent Effect”, in %.
How 0% and 100% were set is not recorded. Most values in the screen are low, and negative values occur.
This is part of a subset picked to be rich in strong results.

With CN(Cc1ccc(N)nc1)c1cccc(C#N)n1 the screen gave Mtb glucose medium: 42.95%. COc1ccccc1C(N)c1nccn1C (centres unmarked) read Mtb glucose medium: 30.54%. CCC(C(N)=O)N1CCC(c2nncn2C)CC1 (centres unmarked) read Mtb glucose medium: 3.037%. CN(C)CC(=O)Nc1ccc(Br)cn1 gave Mtb glucose medium: 30.01%. Cc1ccsc1C(=O)N(C)C read Mtb cholesterol medium: -13.37%. Result for COc1cccnc1C(F)(F)F was Mtb glucose medium: 1.292%. With Cc1ccnc2nc(C(=O)NC(C#N)CC(C)C)nn12 (centres unmarked) the screen gave Mtb cholesterol medium: 3.647%. CCc1ccc2c(c1)[C@@H](N)CCO2 gave Mtb glucose medium: 53.99%.

Cc1cc(NC(=O)NC(C)CN2CCOCC2)no1 (centres unmarked) gave Mtb glucose medium: 14.64%. Cn1cccc1CN1CC(O)(CC#N)C1 read Mtb glucose medium: 2.67%; Mtb cholesterol medium: -10.24%. With NCCc1ccc(CO)cc1 the screen gave Mtb glucose medium: 23.57%. O=C(NC1CCNCC1)c1cc2ccccc2o1 gave Mtb cholesterol medium: 2.978%. For COc1cccc(S(=O)(=O)CCN2CCN(C)CC2)c1 the result was Mtb glucose medium: 31.5%; Mtb cholesterol medium: 89.57%. With NCc1cc(OC2CCC2)ccn1 the screen gave Mtb glucose medium: 20.23%. Result for O=C(NCCc1c[nH]cn1)c1ccncc1 was Mtb cholesterol medium: 6.218%. With CC(C)OCCC(=O)NCC(C)(C)N1CC[S+]([O-])CC1 the screen gave Mtb glucose medium: -7.252%.

NCc1ccc(-n2cccn2)cc1 gave Mtb glucose medium: 11.29%. Result for CN(Cc1cccc2cnccc12)C(=O)CNC(N)=O was Mtb cholesterol medium: -5.982%. With Cn1c(COC(=O)C2(C)CCCC2)cc(=O)n(C)c1=O the screen gave Mtb glucose medium: -3.819%. For CCNC(=O)c1ccc(N2CCOCC2)nc1 the result was Mtb glucose medium: 10.42%. NC(=O)CC1CCN(C(=O)c2cncc(Br)c2)CC1 read Mtb glucose medium: 3.069%. Cc1ccc(CC(=O)N2CCOCC23CCOC3)cc1 (centres unmarked) read Mtb glucose medium: 47.48%. For CN(Cc1ccccc1C(F)(F)F)C(=O)CCCN the result was Mtb glucose medium: -5.739%. COCCN(C)S(=O)(=O)c1cc(F)c(C)cc1F read Mtb glucose medium: 51.44%.

COc1cc(OC)c(NC(=O)C2CCCN2)cc1F (centres unmarked) read Mtb glucose medium: 1.581%. Cc1ccc(C(=O)NC2CCN(CC(N)=O)CC2)cc1 read Mtb glucose medium: 9.581%. With NCCCC(=O)N(Cc1cccc(F)c1)C1CC1 the screen gave Mtb glucose medium: 37.53%. O=C(Cc1ccc2c(c1)OCO2)N[C@H]1C[C@@H]2OCC[C@H]12 gave Mtb glucose medium: -9.297%. For O=C(c1cnsn1)N1CCN(c2ccccn2)CC1 the result was Mtb glucose medium: 70.39%; Mtb cholesterol medium: 59.63%. With CNCc1nc(C)no1 the screen gave Mtb glucose medium: 3.969%; Mtb cholesterol medium: 2.332%. For CN1C[C@@H]2CN(C(=O)CCc3cccnc3)C[C@@H]2C1 the result was Mtb glucose medium: -1.379%; Mtb cholesterol medium: 7.124%. Result for O=C(c1cnsn1)N1CCSCC1c1ccccc1 (centres unmarked) was Mtb glucose medium: 10.12%; Mtb cholesterol medium: -16.51%.

Result for CN(Cc1nnc2n1CCC2)C(=O)C1CCCCC1 was Mtb glucose medium: 4.45%. For CSc1ncccc1C(=O)N1CCC(CS(N)(=O)=O)C1 (centres unmarked) the result was Mtb cholesterol medium: 4.495%. Result for CC1CN(C)CCN1C(=O)NCc1ccccc1F (centres unmarked) was Mtb glucose medium: 15.92%. With Nc1nccnc1C(=O)NCCCN1CCCC1=O the screen gave Mtb glucose medium: 15.15%. With Cc1nn(C)c(C)c1S(=O)(=O)NC(CN)CC(C)C (centres unmarked) the screen gave Mtb glucose medium: -3.544%. With COc1ccc(CN(C)CC2CCOCC2)cn1 the screen gave Mtb glucose medium: -21.29%. Result for Cc1ccc(CS(=O)(=O)N2CCC(C(N)=O)CC2)cc1 was Mtb glucose medium: -10.83%. CCOC(=O)C(O)c1cc(Br)c2c(c1)OCO2 (centres unmarked) gave Mtb glucose medium: 60.14%.

CNCCN(C)C(=O)c1cc(F)ccc1C read Mtb glucose medium: -5.903%. CN(C)c1cc(C(=O)Nc2nccs2)ccn1 read Mtb cholesterol medium: -0.3828%.

The first 3 entries again:

{"smiles": "CN(Cc1ccc(N)nc1)c1cccc(C#N)n1", "Mtb glucose medium": 42.95}
{"smiles": "COc1ccccc1C(N)c1nccn1C", "stereo": "centres unmarked", "Mtb glucose medium": 30.54}
{"smiles": "CCC(C(N)=O)N1CCC(c2nncn2C)CC1", "stereo": "centres unmarked", "Mtb glucose medium": 3.037}